Drawing on article PMC9631343 (ACS Bio & Med Chem Au, 2022), this text covers EC50 for one compound.

The structures appear in SMILES notation. Values joined by “and” are separate entries in the source; they are usually repeats but may differ in a detail not shown here. Equal entries are not always repeated.

For the experiment, the target named is SARS-CoV-2 RdRp (nsp12/7/8 complex) (Severe acute respiratory syndrome coronavirus 2, UniProt P0DTD1, P4715L). The experiment in a line: cell-based. The following applies: inhibition of SARS-CoV-2 RdRp in vitro (EC50) Nsp12.

For the compound `O=c1[nH]cnc2c([C@@H]3N[C@H](CO)[C@@H](O)[C@H]3O)c[nH]c12` [forodesine], the EC50 is ~200 nM and 200 nM.

For orientation: EC50 means the midpoint of the concentration-response curve. A high value points to lower potency in that assay.
